Results: ChEMBL document CHEMBL1671627, “Increasing trends in antimicrobial resistance among clinically important anaerobes and Bacteroides fragilis isolates causing nosocomial infections: emerging resistance to carbapenems” (2008)

Test system: Clostridium perfringens
Assay: Antibacterial activity against beta-lactamase producing Clostridium perfringens by CLSI agar dilution method
Assay type: functional

C[C@H]1COc2c(N3CCN(C)CC3)c(F)cc3c(=O)c(C(=O)O)cn1c23.C[C@H]1COc2c(N3CCN(C)CC3)c(F)cc3c(=O)c(C(=O)O)cn1c23.O [LEVOFLOXACIN]
MIC50: 0.5 µg/mL
